A mixed list of measured activities; the numbers were collected in NIAID ChemDB.

Common to all: whole-cell or culture tests; agent: HIV-1; measure: fold resistance

Blank or dashed fields: not listed here. Rows are shuffled and stem from different studies. Fold resistance has wild type as its base.

smiles,strain or isolate,mutations,read by,result
O=C1Nc2ccc(Cl)cc2[C@@](C#CC2CC2)(C(F)(F)F)N1,-,RT-K103N V108I,-,19
CC(C)(C)NC(=O)[C@@H]1CN(C(C)(C)c2cc3cnccc3o2)CCN1C[C@@H](O)C[C@@H](Cc1ccccc1)C(=O)N[C@H]1c2ccccc2C[C@H]1O,V-18C(PR-L10I M36I S37D M46I R57K LK63P A71V G73S I84V L90M I93L),PR-L10I M36I S37D M46I R57K LK63P A71V G73S I84V L90M I93L,-,>66.7
O=C(NCc1ccc(F)cc1)c1nc(N2CCCCS2(=O)=O)c2cccnc2c1O,-,INTG-T66I,-,1
CCCc1cc(=O)oc2c3c(c4c(c12)OC(C)(C)C=C4)O[C@@H](C)[C@H](C)[C@@H]3O,UC781-RS(RT-Y181C,RT-Y181C,-,<0.3
Cc1cn([C@H]2C[C@H](N=[N+]=[N-])[C@@H](CO)O2)c(=O)[nH]c1=O,-,INTG-T66I,-,1
O=S(=O)(c1ccccc1)c1ccccc1,UC781-RS(RT-Y181C,RT-Y181C,-,>16.3
CC(C)c1c(CO)cn(Cc2ccncc2)c1Sc1ccccc1,-,RT-K103N,cytopathic effect / MTT,<96
Nc1nc2c(ncn2[C@H]2CO[C@@H](CO)O2)c(=O)[nH]1,-,RT-T69N K70R Q151M T215Y,-,~3.5
Cc1cn([C@H]2C[C@H](N=[N+]=[N-])[C@@H](CO)O2)c(=O)[nH]c1=O,NL4-3,DS-resistant,-,0.8
CCc1c(Sc2ccccn2)n(COCc2ccccc2)c(=O)[nH]c1=O,UC781-RS(RT-Y181C,RT-Y181C,-,155
O=C(NCc1ccc(F)cc1)c1nc(N2CCCCS2(=O)=O)c2cccnc2c1O,-,INTG-T66I S153Y,p24,2.5
CC(C)Oc1ccc(Cc2ccccc2)cc1C(=O)CC(=O)C(=O)O,-,INTG-N155H,-,1
Nc1nc2c(ncn2[C@H]2CO[C@@H](CO)O2)c(=O)[nH]1,-,RT-L74V,-,4.2
CC(C)CN(C[C@@H](O)[C@H](Cc1ccccc1)NC(=O)[C@H](CC(N)=O)NC(=O)c1ccc2ccccc2n1)C(=O)NC(C)(C)C,BMS-186318-resistant (PR A71T V82A),PR-A71T V82A,-,2.08
Fc1cccc(F)c1C1SCc2nc3ccccc3n21,IIIB,RT-E138K,cytopathic effect / MTT,1.24
c1cc(CN2CCCNCCNCCCNCC2)ccc1CN1CCCNCCNCCCNCC1,NL4-3,DS-resistant,-,1
CCOCn1c(Cc2ccccc2)c(C(C)C)c(=O)[nH]c1=O,HXB23(RT-K103N,RT-K103N,cytopathic effect / MTT,210
Cc1ccnc2c1NC(=O)c1cccnc1N2C1CC1,NL4-3,AMD3100-resistant,-,12
CC(C)=CCOc1cc(NC(=S)c2ccsc2C)ccc1Cl,UC781-RS(RT-Y181C,RT-Y181C,-,60
CC(C)c1c(CO)cn(Cc2ccncc2)c1Sc1cc(Cl)cc(Cl)c1,-,RT-K103N,cytopathic effect / MTT,<76.7
Cc1ccccc1Cc1cccc(C(=O)CC(=O)C(=O)O)c1,-,INTG-N155S,p24,6

A second listing of 2 rows from above:

smiles | strain or isolate | mutations | read by | result
O=C(NCc1ccc(F)cc1)c1nc(N2CCCCS2(=O)=O)c2cccnc2c1O | - | INTG-T66I | - | 1
O=S(=O)(c1ccccc1)c1ccccc1 | UC781-RS(RT-Y181C | RT-Y181C | - | >16.3